Source: paper PMC9304929 (2022)

B1: recombinant monomeric C-reactive protein, wild type (natural protein)
chain: QTDMSRKAFVFPKESDTSYVSLKAPLTKPLKAFTVCLHFYTELSSTRGYSIFSYATKRQDNEILIFWSKDIGYSFTVGGSEILFEVPEVTVAPVHICTSWESASGIVEFWVDGKPRVRKSLKKGYTVGAEASIILGQEQDSFGGNFEGSQSLVGDIGNVNMWDFVLSPDEINTIYLGGPFSPNVLNWRALKYEVQGEVFTKPQLWP
modifications: citraconylated (residues not stated)
B2: urea-denatured monomeric C-reactive protein (natural protein)
chain: B1 chain

Molecular target: SARS-CoV-2 spike receptor-binding domain (RBD), recombinant (SARS-CoV-2, UniProt P0DTC2)
Experiment: ELISA

Binder | Kd [nM]
B1 | 24.4
B2 | 44.9
